Pooled drug test results. Numbers come from NIAID ChemDB, via PubChem.

Shared fields: whole-cell or culture tests; organism: Rhinovirus

Conditions beyond the fields shown may differ between rows. MIC50, MIC90 and the like: level of inhibition, or share of isolates inhibited. Inhibition is in % at the dose shown (toxicity tests: loss of growth or viability). ECn is the concentration giving n% inhibition of infection, replication or growth. Blank or dashed fields: not listed here.

SMILES,cell line,read-out,read by,tested at,strain,value
N#CCCCCNC(=O)C1CCC(=O)N1,,MIC,,,Serotype 2,>100 µg/mL
Cc1cc(OCCCc2ccc(C(C)F)nn2)ccc1-c1noc(C(F)F)n1,HeLa,EC80,cytopathic effect,,serotypes 3 4 5 9 16 18 38 66 75 67,0.15 µg/mL
Nc1nc2c(ccn2[C@@H]2C[C@H](CO)[C@@H](O)[C@@H]2O)c(=O)[nH]1,,MIC,,,TYPE 31,>100 µg/mL
Cc1cc(OCCCc2ccc(CO)nn2)cc(C)c1-c1noc(C(F)(F)F)n1,HeLa,EC80,cytopathic effect,,serotypes 3 4 5 9 16 18 38 66 75 67,0.18 µg/mL
CCOC(=O)c1ccc(OCCCCC(=O)c2ccc(OC)cc2)cc1,,MIC80,,,serotype 1A 1B 2 6 14 15 21 22 25 29 30 41 42 45 59 63 67 70 72 86 89,>281 µM
COc1ccc(Cn2cnc3c(N(C)C)nc(C(F)(F)F)nc32)cc1C,M-HELA,inhibition,plaque count,8 µM,Serotype 13,12%
O=C(CCCCOc1ccc(C2=NCCO2)cc1)c1ccc(F)cc1,,MIC80,,,serotype 1A 1B 2 6 14 15 21 22 25 29 30 41 42 45 59 63 67 70 72 86 89,>293 µM
Cc1ccccc1Cn1cnc2c(N(C)C)nc(C(F)(F)F)nc21,M-HELA,EC50,plaque count,,Serotype 21,>8 µM
Cc1cc(CCCCCOc2ccc(C3=NCCO3)c(C)c2)on1,,MIC,,,TYPE 14,1.6 µM
Cc1cc(OCCCc2ccc(Cl)nn2)cc(C)c1-c1noc(C(F)F)n1,HeLa,EC80,cytopathic effect,,serotypes 3 4 5 9 16 18 38 66 75 67,0.03 µg/mL
CN(C)c1nc(C(F)(F)F)nc2c1ncn2Cc1cccc(F)c1,M-HELA,inhibition,plaque count,8 µM,Serotype 30,28%
N=C(N)CCNC(=O)C1CCC(N)=N1,,MIC,,,Serotype 2,1.5 µg/mL
Cc1cc(CCCCCOc2cc(Cl)c(-c3nnco3)c(Cl)c2)on1,,MIC80,,,Serotype 89,0.28 µg/mL
O=S(=O)([O-])c1ccc2c(O)cc(S(=O)(=O)[O-])cc2c1,Human amnion AV3 cells,inhibition,cytopathic effect,5 µg/mL,,10%
CC(=O)c1ccc(CCCOc2ccc(-c3noc(C(F)F)n3)c(C)c2)nn1,HeLa,EC80,cytopathic effect,,serotypes 3 4 5 9 16 18 38 66 75 67,0.13 µg/mL
O=C(O)c1cc(S(=O)(=O)[O-])ccc1O,Human amnion AV3 cells,inhibition,cytopathic effect,50 µg/mL,,0%
CCOC(=O)c1ccc(OCCC2CCN(c3ccc(C)nn3)CC2)cc1,,EC90,,,Serotype 2,0.035 µM
CCOC(=O)c1ccc(OCCC2CCN(c3ccc(C)nn3)CC2)cc1,KB,EC50,neutral red,,Baylor 1 (ICAM-1 receptor group 45),0.271 µM
Cc1cc(CCCCCCCOc2ccc(C3=NC(C)(C)CO3)cc2)on1,,MIC,,,TYPE 14,0.1 µM
CN(C)c1nc(C(F)(F)F)nc2c1ncn2Cc1ccc([N+](=O)[O-])cc1,M-HELA,EC50,plaque count,,Serotype 30,>8 µM
Cc1cc(CCCOc2c(C)cc(-c3noc(C(F)(F)F)n3)cc2C)on1,,EC90,,,Serotype 1A,1.4 µM
Fc1cccc(Cn2cnc3c(Nc4cccc(F)c4)nc(C(F)(F)F)nc32)c1,M-HELA,EC50,plaque count,,Serotype 6,>2.5 µM
CSc1ccc(Cn2cnc3c(N(C)C)nc(C(F)(F)F)nc32)cc1,M-HELA,inhibition,plaque count,8 µM,Serotype 21,35%
N#Cc1ccc(OCCCCC(=O)c2ccc(F)cc2)cc1,,MIC80,,,serotype 1A 1B 2 6 14 15 21 22 25 29 30 41 42 45 59 63 67 70 72 86 89,>35 µM
O=S(=O)([O-])c1ccc2c(S(=O)(=O)[O-])cc(S(=O)(=O)[O-])cc2c1,Human embryonic lung cells,inhibition,cytopathic effect,50 µg/mL,,15%
Cc1cc(CCCCCOc2c(Cl)cc(C3=NCCO3)cc2Cl)on1,HeLa,EC50,plaque count,,TYPE 75,0.07 µg/mL
Cc1cc(-c2noc(C(F)(F)F)n2)cc(C)c1OCCCc1ccc(C(C)(F)F)nn1,HeLa,EC80,cytopathic effect,,serotypes 3 4 5 9 16 18 38 66 75 67,0.17 µg/mL
CC1CC(=O)NC1C(=O)NCCC#N,,MIC,,,Serotype 2,>100 µg/mL
COc1ccc(CCCOc2cc(C)c(-c3noc(C(F)F)n3)c(C)c2)nn1,HeLa,EC80,cytopathic effect,,serotypes 3 4 5 9 16 18 38 66 75 67,0.15 µg/mL
CCOC(=O)/C=C/[C@H](C[C@@H]1CCNC1=O)NC(=O)[C@@H](CC(=O)[C@@H](NC(=O)c1cc(C)on1)C(C)C)Cc1ccc(F)cc1,OHIO HELA-I,EC50,cytopathic effect / visual reading,,Isolate 26,0.01 µg/mL
Cc1cc(OCCCc2ccc(Cl)nn2)cc(C)c1-c1noc(C(F)(F)F)n1,HeLa,EC80,cytopathic effect,,serotypes 3 4 5 9 16 18 38 66 75 67,0.67 µg/mL
N=C(N)CCCNC(=O)C1CCC(N)=N1,,MIC,,,Serotype 2,>100 µg/mL
CSc1ccc(C(=O)CCCCOc2ccc(C#N)cc2)cc1,,MIC80,,,serotype 1A 1B 2 6 14 15 21 22 25 29 30 41 42 45 59 63 67 70 72 86 89,>307 µM
CC(C)Oc1ccc(Cn2cnc3c(N(C)C)nc(C(F)(F)F)nc32)cc1,M-HELA,EC50,plaque count,,TYPE 1B,1 µM
Cc1cc(CCCCCOc2cc(Cl)c(-c3nnc(C)o3)c(Cl)c2)on1,,MIC80,,,Serotype 50,0.041 µg/mL
Cc1ccc(Cn2cnc3c(N(C)C)nc(C(F)(F)F)nc32)c(C)c1,M-HELA,inhibition,plaque count,8 µM,Serotype 3,40%
N#CCCNC(=O)C1CCCC(N)=N1,,MIC,,,Serotype 2,>100 µg/mL
O=P1(O)OCC2O[C@@H](n3cnc4c(SCc5ccccc5)ncnc43)[C@H](O)C2O1,,MIC,,,TYPE 2,10 µg/mL

Repeating the first 3 entries:

N#CCCCCNC(=O)C1CCC(=O)N1 ; read-out: MIC ; strain: Serotype 2 ; value: >100 µg/mL
Cc1cc(OCCCc2ccc(C(C)F)nn2)ccc1-c1noc(C(F)F)n1 ; cell line: HeLa ; read-out: EC80 ; read by: cytopathic effect ; strain: serotypes 3 4 5 9 16 18 38 66 75 67 ; value: 0.15 µg/mL
Nc1nc2c(ccn2[C@@H]2C[C@H](CO)[C@@H](O)[C@@H]2O)c(=O)[nH]1 ; read-out: MIC ; strain: TYPE 31 ; value: >100 µg/mL